The values that follow come from ChEMBL document CHEMBL3091419, “Cytidine derivatives as IspF inhibitors of Burkolderia pseudomallei” (Bioorg Med Chem Lett, 2013).

One may read the Kd as a measure of binding affinity in units of concentration. Read a high Kd as a looser complex.

The experiment addresses T1, 2-C-methyl-D-erythritol 2,4-cyclodiphosphate synthase (Burkholderia pseudomallei (strain K96243), UniProt Q63T71).
T1 sequence (Q63T71 whole entry): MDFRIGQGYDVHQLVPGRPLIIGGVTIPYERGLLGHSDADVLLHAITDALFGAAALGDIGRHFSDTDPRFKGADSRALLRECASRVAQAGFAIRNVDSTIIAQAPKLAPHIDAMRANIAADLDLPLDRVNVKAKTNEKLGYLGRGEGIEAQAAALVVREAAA
Nature of the experiment: Binding affinity to Burkolderia pseudomallei IspF by surface plasmon resonance method. Background: In SPR one partner is held on a chip, and binding of the other changes the refractive index at the surface.

Turning to `Nc1ccn([C@@H]2O[C@H](COP(=O)(O)OP(=O)(O)O)[C@@H](O)[C@H]2O)c(=O)n1`, the Kd came to 75 µM.
